We go through twelve molecules from the supplement of paper PMC9931576.

Human monoclonal antibodies against the spike receptor-binding domain (heavy:light variable regions). IC50 against pseudoviruses bearing the spike of naturally observed variants; lower = stronger; >10 µg/ml means not reached at the top dose. No active / inactive call. The stated detection limit is 0.0005 µg/ml; values near or below 0.001 µg/ml lie at the floor of the assay. Some results are limits rather than exact numbers.

First the molecules themselves.
B1: BD56-1695 (protein)
chain 1: QVQLVQSGAAVKKPGSSVKVSCKASGGSFSSYTISWVRQAPGQGLEWMGKIIPFLGVANYAQRFQGRVTITADKSTSTVYMDLSSLRSEDTAVYYCARDRNGYFGAFDIWGQGTMVTVSA
chain 2: QSVLTQPPSVSGAPGQRVTISCTGNNSNIGAGYDVHWYQQFPGTAPKVVIYGNNNRPLGVPDRFSGSKSDTSASLAITGLQAEDEADYYCQSYDSSLSDVIFAGGTKLTVL
B2: BD56-1698 (protein)
chain 1: QVQLVQSGAEVKKPGSSVKVSCKASGGTFSSYTFSWVRQAPGQGLEWMGRIIPILGIANYAQNFQVRVTITADKSTSTAYMELSSLTSEDTAVYYCATLRGYSGYGANEFFDYWGQGTLVTVSS
chain 2: QSVLTQPPSVSGAPGQRVTISCTGSNSNIGAGYDVHWYQQLPGTAPKLLININSNRPLGVPDRFSGSKSGTSASLAIAGLQVEDEADYYCQSYDSSLSDWVFGGGTKLTVL
B3: BD56-1724 (protein)
chain 1: QVQLVQSGSELKKPGASVKVSCKASGYTFIRHAMNWVRQAPGQGLEWMGWINTNTGSPTYAQGFTGRFVFSLDTSVSTAYLQISSLKAEDTAVYYCARASYYGSGMEYYYAMDVWGQGTPVTVSS
chain 2: SYVLTQPPSVSVAPGQTAKLTCGGDSIGSKSVHWYQQKPAQAPVLVVFDDSDRPSGIPARFSGSNSGNTATLTISRVEAGDEADYYCQVWDTAGVFGGGTKLTVL
B4: BD56-1682 (protein)
chain 1: QVQLVESGGGVVQPGKSLRLSCAASGFTFSGYAMHWVRQAPGKGLDWVAVISSDGSFKHSADSVKGRFTISRDNSQNMLYLQMNTLRPGDTALYYCATEGSDSSWYVYFDNWGQGALVTVSS
chain 2: DIQMTQSPSSLSASVGDRVTITCRASQTISSYLNWYQQKPGKAPKLLIFAASNLQTGVPSRFSGSGSGTDFTLTISSLQPEDFATYYCQQSYTTLSYTFGQGTRLEIK
B5: BD56-1691 (protein)
chain 1: EVHLVESGGGLVQPDKSLRLSCAASGFPFDDYAMHWVRQAPGKGLEWVSGISWNGGVIGYADSVKGRCVISRDNAKNSLYLHMSSLRAEDTALYYCVKDMSGGDYQNYFDHWGQGTLVTVSS
chain 2: SYVLTQAPSVSVAPGRTARITCGGNYIGGKSVHWYQQRPGQAPVVVVYDNSDRPSGIPERFSGSRSGNTATLTISRVDAGDEADYYCQVWDSSRDLYVFGTGTKLTVL
B6: BD56-1688 (protein)
chain 1: QVQLVQSGAELKKPGSSVKVSCQASGGTFSNYGFSWVRQAPGQGLEWMGRIIPILPITNYAQKLQGRVTITADESTTTVYMELSSLRSEDSAIYYCARHLHDYGDDLLYKYVMDVWGQGTTVTVSS
chain 2: DIQMTQSPSTLSASVGDRVTITCRASQTISNWLAWYQQKPGKAPKLLISKASNLQSGVPSRFSGSGSGTEFTLTISGLQPDDFATYYCQQYNTYSPFGQGTKVEIK
B7: BD56-1699 (protein)
chain 1: QVQLVQSGAEVKKPGSSVKVSCKASGGTFSSYTISWVRQAPGQGLEWMGRIIPILDITNYAQKFQGRVTITADKSTSTAYMELSSLRSEDTAVYYCARDHPNYYDSSGLASDYFDYWGQGTLVTVSS
chain 2: QSVLTQPPSVSGAPGQRVTISCTGSSSNIGAGYDVHWYQQLPGIAPKLLIYGNNNRPSGVPDRFFGSKSGTSASLAITGLQAEDEADYYCLSYDSSLSGSVFGGGTKLTVL
B8: BD56-1721 (protein)
chain 1: QVQLVQSGAEMKKPGSSVKVSCKASGGTFSSYTISWVRQAPGQGLEWMGRIIPILGVANYAQKFQGRVTITADKSTATAYLELSSLRSEDTAVYYCARVAPMATNDWYFDLWGRGTLVTVSS
chain 2: QSVLTQPPAVSGAPGQRVTISCSGSGSNIGAGYDVHWYQQLPGTAPKLLIYVNRNRPSGVPDRFSGSKSGTSASLAITGLQAEDEADYYCQSYDSSLSGSVFGGGTKLTVL
B9: BD56-1720 (protein)
chain 1: EVQLVESGGGLVQPGGSLRLSCAASGFTFSSYDMHWVRQVTGKGLEWVSTIGTSGDTYYPDSVKGRFTISRENAKNSLYLQMSSLRAGDSAVYFCSRVTYDSRGYHWYLDLWGRGTRVTVSS
chain 2: DIQMTQSPSSLSASVGDRVTITCRTSQSINKYLNWYQQKPGKAPKLLIYGASFSLQSGVPSRFSGSGSGTEFTLTISNLQPEDCATYYCQQSYTNPLYTFGQGTKLEIK
B10: BD56-1717 (protein)
chain 1: QVQLEQSGAEVRKPGSSVMVSCKASGGTFSNYAVSWVRQAPGQGLEWMAGIVPVFDTTYYAQKFQGRVTITADVSTNTVYINVNSLRPDDTAVYYCAGHSSSPSASYSYSYYMDVWGKGTTVTVSS
chain 2: QSALTQPASVSGSPGQSITISCTGTSSDVANYDLVSWYQQHPGKAPKLIIYDFTKRPSGVSSRFSASKSGNTASLTISGLQAEDEADYYCCAYGGSSTWVFGGGTKVTAL
B11: BD56-1718 (protein)
chain 1: EVQLVESGGGFVQPGGSLRLSCAASEFTFSSYDMHWVRQPTGKGLEWVSTIGTAGDTYYADSVKGRFTMSRENAKNSLYLQMNTLRAGDTAVYYCARDGGHGYNYGYFDLWGRGTLVTVSS
chain 2: DIQMTQSPSSLSASVGDRVTITCRASQSIRRYLNWYQLKPGKAPNLLIFGASNLHSGVPSRFSGSGSGTDFTLTISSLQPEDFATYSCQQSYSTSYTFGQGTKLEVK
B12: BD56-1729 (protein)
chain 1: QITLKESGPTLVKPTQTLTLTCTFSGFSLTTGGVGVGWIRQPPGKALEWLALIYWDDDKRYSPSLETRLTITKDTSKNQVVLTMTNMGPADTATYYCAHRRKLGYFISGHFGYWGRGTLVTVSS
chain 2: QSVLTQPPSTSGTPGQRVPISCSGSGSNIGTNTVNWYQQLPGTAPKLLIYSDNQRPSGVPDRFSGSKSGTSASLAINGLQSEDEAEYYCAAWDDSLSGPIFGGGTKLTVL

In one assay the target is SARS-CoV-2 Omicron BA.1 spike pseudovirus. The assay is described as follows: pseudovirus neutralization IC50; higher = weaker neutralization. As to the method: (§1)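 Single-round VSV luciferase pseudovirus mixed with antibody dilutions for 1 h and put on Huh-7 cells for about a day; IC50 from the dose curve.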
In the case of B1, the “pseudovirus neutralization IC50” value amounted to 0.0771 µg/mL.
B2: the “pseudovirus neutralization IC50” value amounted to 0.0396 µg/mL.
As to B3, the “pseudovirus neutralization IC50” value was > 10 µg/mL.
B4: the “pseudovirus neutralization IC50” value is > 10 µg/mL.
As for B5, the “pseudovirus neutralization IC50” value turned out to be 0.00672 µg/mL.
B6: the “pseudovirus neutralization IC50” value is 0.00778 µg/mL.
The same measure, in the same setting: the value for B7 was 0.128 µg/mL; that for B8 was 0.31 µg/mL; that for B9 was > 10 µg/mL.
Regarding B10, the “pseudovirus neutralization IC50” value amounted to 0.000756 µg/mL.
With B11, the “pseudovirus neutralization IC50” value was > 10 µg/mL.
Regarding B12, the “pseudovirus neutralization IC50” value stood at 0.917 µg/mL.

For a further assay, the target named is SARS-CoV-2 Omicron BA.2 spike pseudovirus. The assay is described as above. As to the method: as §1
As to B1, the “pseudovirus neutralization IC50” value came to 0.0443 µg/mL.
As for B2, the “pseudovirus neutralization IC50” value was found to be 0.0111 µg/mL.
As for B3, the “pseudovirus neutralization IC50” value is > 10 µg/mL.
As to B4, the “pseudovirus neutralization IC50” value is > 10 µg/mL.
Consider B5, for which the “pseudovirus neutralization IC50” value is 0.00762 µg/mL.
Consider B6, for which the “pseudovirus neutralization IC50” value turned out to be 0.00391 µg/mL.
For B7, the “pseudovirus neutralization IC50” value is 0.146 µg/mL.
B8: the “pseudovirus neutralization IC50” value was 0.197 µg/mL.
On the same count and under the same terms, in the case of B9 it was > 10 µg/mL.
The same measure, in the same setting: in the case of B10 it was 0.000934 µg/mL.
In the case of B11, the “pseudovirus neutralization IC50” value is > 10 µg/mL.
As for B12, the “pseudovirus neutralization IC50” value was 0.791 µg/mL.

A further assay has as its target SARS-CoV-2 Omicron BA.2.75 spike pseudovirus. The description is as above. As to the method: as §1
In the case of B1, the “pseudovirus neutralization IC50” value is 0.102 µg/mL.
For the molecule B2, the “pseudovirus neutralization IC50” value stood at 0.0262 µg/mL.
The same measure, in the same setting: in the case of B3 it was > 10 µg/mL; in that of B4, > 10 µg/mL; in that of B5, 0.0133 µg/mL.
On the same count and under the same terms, in the case of B6 it was 0.789 µg/mL.
On to B7, for which the “pseudovirus neutralization IC50” value was determined as 0.317 µg/mL.
Take B8: the “pseudovirus neutralization IC50” value was 0.353 µg/mL.
The same measure, in the same setting: in the case of B9 it was > 10 µg/mL.
Turning to B10, the “pseudovirus neutralization IC50” value stood at 0.000716 µg/mL.
Take B11: the “pseudovirus neutralization IC50” value is > 10 µg/mL.
As to B12, the “pseudovirus neutralization IC50” value came to 0.173 µg/mL.

In the next assay the target is SARS-CoV-2 Omicron BA.5 spike pseudovirus. The description is as above. As to the method: as §1
As to B1, the “pseudovirus neutralization IC50” value came out at 6.07 µg/mL.
Turning to B2, the “pseudovirus neutralization IC50” value was 1.56 µg/mL.
Consider B3, for which the “pseudovirus neutralization IC50” value is > 10 µg/mL.
Turning to B4, the “pseudovirus neutralization IC50” value was > 10 µg/mL.
Still for that read-out and setting: the value for B5 was 0.869 µg/mL; that for B6 was 0.229 µg/mL; that for B7 was > 10 µg/mL.
In the case of B8, the “pseudovirus neutralization IC50” value is > 10 µg/mL.
The same measure, in the same setting: the value for B9 was > 10 µg/mL; that for B10 was 2.88 µg/mL.
Take B11: the “pseudovirus neutralization IC50” value was > 10 µg/mL.
As to B12, the “pseudovirus neutralization IC50” value is > 10 µg/mL.

In another assay the target is SARS-CoV-2 Omicron BQ.1.1 spike pseudovirus. The assay is described as above. As to the method:
as §1
As to B1, the “pseudovirus neutralization IC50” value was > 10 µg/mL.
Regarding B2, the “pseudovirus neutralization IC50” value is > 10 µg/mL.
In the case of B3, the “pseudovirus neutralization IC50” value was > 10 µg/mL.
On the same count and under the same terms, in the case of B4 it was > 10 µg/mL; in that of B5, > 10 µg/mL; in that of B6, 1.51 µg/mL.
For B7, the “pseudovirus neutralization IC50” value is > 10 µg/mL.
Take B8: the “pseudovirus neutralization IC50” value is > 10 µg/mL.
The same measure, in the same setting: in the case of B9 it was > 10 µg/mL; in that of B10, 3.45 µg/mL; in that of B11, > 10 µg/mL.
Consider B12, for which the “pseudovirus neutralization IC50” value was > 10 µg/mL.

Another assay has as its target SARS-CoV-2 Omicron XBB spike pseudovirus. The description is as above. As to the method: as §1
On to B1, for which the “pseudovirus neutralization IC50” value was > 10 µg/mL.
Take B2: the “pseudovirus neutralization IC50” value amounted to 2.63 µg/mL.
With B3, the “pseudovirus neutralization IC50” value is > 10 µg/mL.
On the same count and under the same terms, in the case of B4 it was > 10 µg/mL; in that of B5, > 10 µg/mL.
Regarding B6, the “pseudovirus neutralization IC50” value was 2.04 µg/mL.
Consider B7, for which the “pseudovirus neutralization IC50” value was > 10 µg/mL.
Regarding B8, the “pseudovirus neutralization IC50” value was > 10 µg/mL.
Still for that read-out and setting: the value for B9 was > 10 µg/mL.
As to B10, the “pseudovirus neutralization IC50” value was > 10 µg/mL.
As to B11, the “pseudovirus neutralization IC50” value is > 10 µg/mL.
Take B12: the “pseudovirus neutralization IC50” value is > 10 µg/mL.

The next assay has as its target SARS-CoV-2 early D614G spike pseudovirus. The assay is described as above. As to the method:
as §1
B1: the “pseudovirus neutralization IC50” value came to 0.0721 µg/mL.
Take B2: the “pseudovirus neutralization IC50” value was 0.0411 µg/mL.
As to B3, the “pseudovirus neutralization IC50” value is > 10 µg/mL.
Same read-out and setting: in the case of B4 it was > 10 µg/mL; in that of B5, 0.0132 µg/mL.
B6: the “pseudovirus neutralization IC50” value was found to be 0.247 µg/mL.
On the same count and under the same terms, in the case of B7 it was 0.688 µg/mL; in that of B8, 0.207 µg/mL; in that of B9, > 10 µg/mL.
In the case of B10, the “pseudovirus neutralization IC50” value is 0.0012 µg/mL.
Regarding B11, the “pseudovirus neutralization IC50” value was > 10 µg/mL.
As for B12, the “pseudovirus neutralization IC50” value came to 0.0478 µg/mL.
